In data set [1] the test system is T1, ArcA-His6 (Salmonella enterica serovar Typhimurium ATCC 14028).
T1 sequence (looked up, limits assumed): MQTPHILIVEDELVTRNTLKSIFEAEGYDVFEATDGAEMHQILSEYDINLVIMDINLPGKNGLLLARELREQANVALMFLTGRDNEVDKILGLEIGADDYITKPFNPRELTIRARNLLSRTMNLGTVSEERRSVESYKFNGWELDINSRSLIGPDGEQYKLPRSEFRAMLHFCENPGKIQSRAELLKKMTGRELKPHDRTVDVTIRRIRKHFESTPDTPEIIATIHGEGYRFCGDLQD
The data set can be described thus: EMSA. The settings on record: ArcA 0-1.6 uM, low O2; 20 mM Tris-HCl pH 7.5, 80 mM NaCl, 0.1 mM EDTA, 1 mM DTT; 100 ng DNA in 20 ul, 37 C, 20 min (ArcA under low O2); 6% PAGE in 0.5x TBE; recombinant protein; label: none (ethidium bromide stain); probe letters rebuilt from the primers and the genome.

Data set [2] concerns the target LoiA-His6 (Salmonella enterica serovar Typhimurium ATCC 14028) (UniProt A0A0F6AZ30). Kind of data set: EMSA. The settings on record: LoiA 0-1.6 uM; 20 mM Tris-HCl pH 7.5, 80 mM NaCl, 0.1 mM EDTA, 1 mM DTT; […]; recombinant protein; residues 1-296; label: none (ethidium bromide stain); probe letters rebuilt from the primers and the genome.

The text below walks through data of article PMC5476282.

For some assays here: The exact form of at least one protein or probe is not confirmed. For some assays here: Where a protein sequence is shown, tags need not be part of it.

As for “ATTACTCTTTGCAAAAACAAAAAGTTAACAAAAAATTCACCATGCATTCAATGAATAAACATTATTAACATTAACTTCAAAAATTGATTTTAATCAATATTTAAATGTTGGAAAAGAGCATCAAAACTGGTTAAATTGTCCGTGATCAAATTCCCTGAAAAGCGATAGATTAGCCATAAATTGATCGCTGTCGAAAAAAGCAAATCTGACCCACTAAAAACCTGTTTATTGTAAGGGTTTTACGGCGTAATATATTTGCGGGATCAATTTGGGTTTTTTATTAACATGTTTGTAACTTTTCATCATTACTGTTTCCTTCCCGAGGGGATAGTACGATGGAAGGCCGCAAATAAATTTGTATTGGGGCATGCGTGTGACCCTTTCTAACGGGGTTCACTCTCGGAGTCTTCATGCGATGAGCAAGGAGTCATGATGTTAGATATAGTCGAACTGTCGCGCTTACAGTTTGCCTTGACCGCGATGTACCACTTCCTGTTTGTGCCGCTAACGCTCGGTATGGCGTTCCTGCTGGCCATTATGGAAACGGTATACGTCCTTTCCGGCAAACAGATTTATAAAGATATGACCAAGTTC (double strand) [cydA promoter (PcydA)]”, in data set [1], the binding result is “binds”.
Regarding “CTTCAAGCGTCACGTTAACTACCTGCTCTTTTTTGAGCACCAACATCCCAGGTTCGTCACAGTAAATCGTATCGTGATTATTGCTAATCGTCAGTTTACCGCTCCGAAAGCAAACTAAAGTGAAACTGCTTACATAAAGATTTTTGATGGTAACCTGCTGAGTCTGACTTTTAATTTGCTGCCGGGTATTTGTCAAAAGTGATTTTAATTTCTGTAAGTTATCTGCGGCAGGACGCTGATGACTATTACTTACAAAGGTTACATTTTCCATATTATCCCTTTGTTGATGTTATTTTAATGTTCCTTACTGGTATCCTACTGAAAAAATCTGAGTTGTAAATGCTCTTTATTAGCGTGTGTTGGCAATGGTCTGATTGTTACACCAAAAGAACCCAAATTTGGGTAATTTATCTACAGTAGTTTAAGCCCCAATGGGGATGATGGTTCTTTTAATATGTGTTGAGACGCATTATACAGAATAAATTGATTTTATTTCTCACTTTTCATTCTATTTTCATCAGGAATCCCTGTGTCCTGTGCGGTAATCTGCTGCTATCGAGAACGACAGACATCGCTAACAGTATATATGGAAACATCAAAAGAGAAGACGATAACAAGCCCAGGGCCATACATAGTTCGATTACTTAACAGCTCACTGAACGGCTGTGAGT (double strand) [hilD promoter (PhilD)]”, the binding result in data set [2] is on record as “binds”.
